In ChEMBL document CHEMBL1125714, “Novel class of amino acid antagonists at non-N-methyl-D-aspartic acid excitatory amino acid receptors. Synthesis, in vitro and in vivo pharmacology, and neuroprotection” (J Med Chem, 1991):

Assays:
Rattus norvegicus [1] = species on record: Rattus norvegicus; assay: Neuroprotective effect evaluated for excitatory amino acid receptor antagonism with the concentration at 1 uL in the corpus striatum of 10 rats with glutamic acid decarboxylase as the marker enzyme.
Rattus norvegicus [2] = species on record: Rattus norvegicus; assay: Neuroprotective effect evaluated for excitatory amino acid receptor antagonism with the concentration at 1 uL in the corpus striatum of 10 rats with choline acetyltransferase as the marker enzyme.

SMILES | Enzyme activity (Rattus norvegicus [1]) | Enzyme activity (Rattus norvegicus [2])
C=C(C)[C@H]1CN[C@H](C(=O)O)[C@H]1CC(=O)O.Cc1onc(OCC(=O)O)c1CC(N)C(=O)O (centres undefined) [KAINIC ACID] | 102% | 90%
C=C(C)[C@H]1CN[C@H](C(=O)O)[C@H]1CC(=O)O.Cc1onc(O)c1Cn1oc(C)c(CC(N)C(=O)O)c1=O (centres undefined) | 68% | 87%
